B1: mAb 298 (antibody, V domains shown)
VH: QVQLVQSGAEVKKPGASVKVSCKASGGTFSTYGISWVRQAPGQGLEWMGWISPNSGGTDLAQKFQGRVTMTRDTSTSTVYMELSSLRSEDTAVYYCASDPRDDIAGGYWGQGTLVTVSS
VL: not shown
B2: mAb 80 (antibody, V domains shown)
VH: QVQLVQSGAEVKKPGSSVKVSCKASGGTFNRYAFSWVRQAPGQGLEWMGGIIPIFGTANYAQKFQGRVTITADESTSTAYMELSSLRSEDTAVYYCARSTRELPEVVDWYFDLWGRGTLVTVSS
VL: DIVMTQSPDSLAVSLGERATINCKSSQSVLYSSNNKNYLAWYQQKPGQPPKLLIYWASTRESGVPDRFSGSGSGTDFTLTISSLQAEDVAVYYCQQYYSAPLTFGGGTKVEIKR

What was measured:
Assay in all cases: heat map 'Binding effect': affinity for mutated RBD against WT RBD
L452R (RBD mutations) = L452R (RBD mutations) (SARS-CoV-2)
A475V (RBD mutations) = A475V (RBD mutations) (SARS-CoV-2)
N439K (RBD mutations) = N439K (RBD mutations) (SARS-CoV-2)
V483A (RBD mutations) = V483A (RBD mutations) (SARS-CoV-2)

Row | Binder | Affinity change vs WT RBD (L452R (RBD mutations)) | Affinity change vs WT RBD (A475V (RBD mutations)) | Affinity change vs WT RBD (N439K (RBD mutations)) | Affinity change vs WT RBD (V483A (RBD mutations))
1 | B1 | -2.4 fold | -4.3 fold | -0.4 fold | -1.9 fold
2 | B2 |  | 0.2 fold | -0.7 fold | 0.6 fold
